Test system: PrP^res
Experiment: Detection of PrP^res in bovine brain by Western blotting after treatment with calixarene C6S and streptomycin
Details: FIG. 7

| Molecule | sensitivity of PrP^res detection versus amount of streptomycin (20 μl streptomycin sulfate 5%, 10%, 20%, after calixarene C6S) | detection of PrP^res (calixarene C6S (1 μl of 0.1M) used together with streptomycin, versus untreated or calixarene alone) |
| --- | --- | --- |
| [H]/N=C(/N)N[C@H]1[C@H](O)[C@@H](O)[C@H](O[C@@H]2O[C@@H](C)[C@](O)(C=O)[C@H]2O[C@@H]2O[C@@H](CO)[C@H](O)[C@@H](O)[C@@H]2NC)[C@@H](N/C(N)=N\[H])[C@@H]1O [streptomycin] | the sensitivity of this method increases with the amount of streptomycin used |  |
| p-sulfonato-3,7-(2-amino-ethyloxy)calix-[6]-arene |  | improved |

Reference: patent US7566530B2 (priority 2004, dated 2009)
